From PMC2494871, “Vaccinia Virus Proteins A52 and B14 Share a Bcl-2–Like Fold but Have Evolved to Inhibit NF-κB rather than Apoptosis” (2008)

Test system: A52ΔN36 (vaccinia virus protein A52, residues 37–190), vaccinia virus strain Western Reserve, Q01220 37-190
Assay: crystal structure

## A52ΔN36 (vaccinia virus protein A52, residues 37–190)
  stoichiometry N: 2
